PubChem BioAssay AID624099, ICCB-Longwood | 2012
The whole screen tested about 21,000 reagents; this is an unselected part. 497 of all reagents (2.4%) were called active. 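Higher z means weaker E2 silencing; only reporter increases were scored, and knock-downs that hurt cell survival may mask genuine repressor factors.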

- Test: 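Host factors E2 relies on to silence an HPV18 LCR reporter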 (primary screen)
- System: human C33A cervical carcinoma cells (HPV-negative) stably expressing BPV1 E2 and an HPV18 LCR luciferase reporter
- Knock-down reagent: siRNA pool against human genes, 40 nM
- Time to read-out: 72 h
- Measured: 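Per-well luciferase luminescence, z-scored on each plate against the plate mean and SD with control wells left out, then averaged across three replicate plates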
- Reading the numbers: mean z-score and z-score: higher = stronger reporter signal, weaker E2 silencing
- Rule for the call: 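Hit if mean z-score reaches 2 and two or more of three replicate z-scores also reach 2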

no.	Gene	mean z-score	z-score, replicate A	z-score, replicate B	z-score, replicate C	activity call
1	CCR10	2.05	2.04	2.21	1.9	active
2	SLC15A3	-0.33	-0.25	-0.53	-0.22	inactive
3	SLC6A1	-0.06	0.2	-0.29	-0.07	inactive
4	NPFFR2	-0.48	-0.61	-0.41	-0.41	inactive
5	RTL9	1.06	0.83	0.96	1.4	inactive
6	DEF8	-0.87	-1.05	-1.03	-0.53	inactive
7	RNF144A	0.2	0.12	0.19	0.28	inactive
8	DBX2	0.05	0.15	0.22	-0.22	inactive
9	UHRF2	0.49	0.49	0.37	0.62	inactive
10	UCHL5	-1.12	-1.13	-0.9	-1.35	inactive
11	FTL	-1.46	-1.66	-1.36	-1.37	inactive
12	SORD	-0.11	-0.21	-0.12	0	inactive
13	SKIC8	0.2	0.15	0.36	0.09	inactive
14	ITGB5	0.23	0	0.21	0.49	inactive
15	TAF1A	0.63	0.62	0.8	0.47	inactive
16	POLE	-0.79	-0.8	-0.83	-0.73	inactive
17	ROBO4	1.61	1.76	1.23	1.83	inactive
18	MAN2A1	-1.43	-1.59	-1.52	-1.18	inactive
19	ZNF45	-0.15	-0.38	-0.11	0.04	inactive
20	CHI3L1	-0.27	-0.34	-0.31	-0.16	inactive
21	SUDS3P1	-1.34	-1.62	-1.21	-1.2	inactive
22	ASPHD1	0.03	-0.37	0.32	0.13	inactive
23	DDX28	-0.59	-0.92	-0.42	-0.43	inactive

Individual results from above:
Under “mean z-score”, TAF1A is entered as 0.63
For “mean z-score”, DBX2 reads 0.05
